Measurements reported in patent US20050085441A1, “Use of soluble monovalent oligosaccharides as inhibitors of HIV-1 fusion and replication” (priority 2002, published 2005).

Tested on: HIV-1 M-tropic strain Ba-L
Assay: Replication of strain Ba-L in MT-2 cell clone transfected with CCR5
Assay type: cell-based
Conditions: MT-2 cell clone transfected with CCR5 co-receptor

Row | Structure (SMILES) | inhibition of viral replication of strain Ba-L
1 | OC[C@H]1O[C@H](O[C@@H]2[C@H](O)[C@@H](O)[C@H](O[C@H]3[C@H](O)[C@@H](O)C(O)O[C@@H]3CO)O[C@@H]2CO)[C@H](O)[C@@H](O)[C@H]1O (stereo partly drawn) [globotriose, galactose α1-4galactose β1-4glucose] | not inhibitory
2 | OC[C@H]1O[C@@H](O[C@H]2[C@H](O)[C@@H](O)[C@H](O)O[C@@H]2CO)[C@H](O)[C@@H](O)[C@H]1O [lactose, o-β-D-galactopyranosyl-(1-4)-β-D-glucopyranose] | not inhibitory
